## Primary screen of a compound library

Measurements from “University of Dundee, Small-Polar-MMV Screening Library” (2021), ChEMBL document CHEMBL3988442.

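Phenotypic screen: M. tuberculosis growth, glucose 7H9 medium, 3 days; the read-out is not stated. Compounds at 500 µM. The record gives no direction; compounds that gave an IC50 in retests scored well above the rest, so higher reads as more growth inhibition. Size under these conditions: about 18,000 compounds, about 1,400 of them at 50% or above in at least one test.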

Results are given as percent effect.
How 0% and 100% were set is not recorded. Most values in the screen are low, and negative values occur.
The entries come from a sample that favours strong results.

compound | percent effect
CCOC(=O)c1c(C)nc2c(C#N)cnn2c1C | -1.36
CC(CCO)NCc1ccccc1 (centres unmarked) | -0.4929
COc1ccc(F)c(F)c1CN1CCCC(O)(CO)C1 (centres unmarked) | 25.15
CN(C)c1ncccc1CNC(=O)NCC1CCCO1 (centres unmarked) | 0.5596
Cc1nn(C)c(Cl)c1CN(CC(N)=O)C(C)C | 37.74
CCN(C(=O)c1coc(S(=O)(=O)NC)c1)C1CC1 | 10.24
Cc1ccc(F)c(CN2CC[C@H](N)C2)c1 | 81.63
CN(CCOc1ccc(Cl)cc1)C(=O)C(C)(C)CN | 84.49
CN1[C@H]2CC[C@@H]1CN(CC(=O)Nc1ccn(C)n1)CC2 | -24.43
Cc1noc(Cl)c1CC(=O)N1CCN(CC(C)O)CC1 (centres unmarked) | -2.216
CN(C)CCNc1oc(-c2ccccc2)nc1C#N | 3.992
CC(C)N1CCOC(Cn2cc(Br)cn2)C1 (centres unmarked) | 21
CC(C)C(N)c1nncn1C (centres unmarked) | -1.405
COc1cccc(CNc2ccccn2)c1O | 53.37
COc1ccc(NC(=O)N2CCOCC2)cc1F | -1.647
CC(C)CC(=O)NCCc1ccc(S(N)(=O)=O)s1 | 3.333
Cn1cc(Br)c(CC#N)n1 | 7.338
CNC(=O)C1CN(C(=O)c2ccc(Cl)c(C)c2)CCO1 (centres unmarked) | 10.86
CCn1cc(NC(=O)c2ccc(C)n2C)cn1 | 30.17
CCOC(=O)c1ccc(N2CCC(CCO)CC2)nc1 | 82.47
CCCC1SCCN1C(=O)c1cnc2n[nH]c(C)c2c1 (centres unmarked) | 13.68
CCCn1nnc(NCc2ccc(OC)cc2)n1 | 87.51
COC(=O)CNC(C)c1c(F)cccc1OC (centres unmarked) | -16.98
O=C(Cc1ccsc1)N1CCC(c2cc[nH]n2)CC1 | 20.4
Cc1nccc(CN)n1 | 4.468
NCCc1nnc(N)o1 | 0.5903
Cn1nccc1C(=O)NC1CCc2ccccc2OC1 (centres unmarked) | 53.82
CNC(=O)CSCCC1CCCCN1C (centres unmarked) | -7.147
CCSC(C)C(=O)N(C)CCc1ccncc1 (centres unmarked) | 21.7
CC(C)n1nnnc1SCCS(=O)(=O)c1ccccc1 | 55.52
CN(Cc1ccc(Br)s1)CC(O)COCCO (centres unmarked) | 56.71
CCc1nc(C)cc(N)n1 | -2.476
CC(C)Oc1ccc(S(=O)(=O)N2CCC(N)C2)cc1 (centres unmarked) | 81.22
COc1ccc(CCN2CCNCC2)cc1 | 25.86
CC(C)(C)C(=O)Nc1ccc(Cl)c(C(N)=O)c1 | 38.97
O=C(Cc1cc(F)ccc1F)N[C@H]1CCCNC1 | 4.259
CN1CC(C(=O)N2CCc3cc(Br)ccc32)CC1=O (centres unmarked) | -14.75
COC(=O)c1cn(CCO)nn1 | 1.945
NCC(O)c1c(F)cccc1F (centres unmarked) | 11.24
Cc1ccccc1CNCCS(=O)(=O)N1CCOCC1 | -2.891
CO[C@H]1CNCC1NC(=O)Cc1nc(C)sc1C (some centres unmarked) | 0.3226
CNS(=O)(=O)c1ccccc1C(=O)OC | 5.213
CCN(CC)CC(=O)NCc1ccco1 | 6.602
CCOc1cc(Cl)ccc1CN | 55.45
O=C(NCCn1cccc1)c1ccc(Cl)cn1 | 85.22
Cc1noc(C)c1C(=O)NCCN1CCCCCC1=O | 12.74
CC(=O)NC(C)C(=O)Nc1ccc2c(c1)CCC2 (centres unmarked) | 8.01
CN(Cc1nccn1C)C(=O)COCC1CCCO1 (centres unmarked) | 0.6454
O=C(CCc1ccc(Cl)s1)NCC(O)C1CCOCC1 (centres unmarked) | 25.85
CSCC(C)CNC(=O)c1cnccn1 (centres unmarked) | -3.443
CCN1CCN(CC(C)CNc2ncccc2F)CC1 (centres unmarked) | 1.301
NC(=O)C1CCCN(C(=O)COCc2ccccc2)C1 (centres unmarked) | 6.246
O[C@H]1CN(Cc2cscn2)C[C@@H]1N1CCCC1 | 12.18
Nc1c(NCc2ccncc2)ncnc1-n1cccn1 | 36.46
Cn1cc(CNC(=O)c2c(N)cnn2C)cn1 | 3.923
O=c1[nH]c(=O)c2ccc(Cl)cc2o1 | 11.22
O=C(Oc1nsnc1N1CCCCC1)N1CCOCC1 | 61.6
OCC1CN(Cc2ccc(Br)c3cccnc23)CCO1 (centres unmarked) | 46.75
CN(C)c1cccc(NC(=O)c2cc(Cl)ccn2)n1 | -7.074
CNS(=O)(=O)c1ccc(NCCn2ccnc2)c(F)c1 | -8.272
COCCC1(C(=O)N2CCC(CO)C2)CCC1 (centres unmarked) | 31.32
Cc1noc(-c2ccc(=O)n(CC(C)C)n2)n1 | -16.46
COCC(CN)c1ccc(Cl)cc1 (centres unmarked) | 2.301
CCC(=O)NCc1ccncc1OCC(F)(F)F | 5.664
CC[C@H](N)C(=O)N(C)CCOc1cccc(Cl)c1 | 63.68
CCC(NC(=O)c1cccn1C(C)C)[C@H]1C[C@H](O)C1 (some centres unmarked) | -13.79
CC(C)C(=O)NCCCNC(=O)c1ccc(F)cc1O | 64.39
CCCn1c(O)nnc1SCc1cccc(OC)n1 | 57.05
CC1CN(C(=O)NCc2ccsc2)CCO1 (centres unmarked) | 5.734
COCC(=O)NCc1ccccc1CN1CCCC1=O | -8.054
CC1Cc2ccccc2N1CC(N)=O (centres unmarked) | 19.7
Cc1nncc(CN)c1C | -4.973
OCCC1CCCN1Cc1ccc2ccccc2n1 (centres unmarked) | 15.87
CN(CCc1cnn(C)c1)C(=O)CN1CCOC1=O | 8.147
COCC(C)(C#N)NC(=O)c1ccc(C)cc1F (centres unmarked) | -8.881
NC(=O)c1ccc(CNC2CCCc3sccc32)o1 (centres unmarked) | 23.71
O=C1C=CC(=O)N1Cc1ccc(Cl)cc1 | 100.7
CCC(=O)N1CCN(C(=O)C2CCCCN2CC)CC1 (centres unmarked) | 6.83
O=C(NCCCn1cc(Cl)cn1)C1CCOCC1 | 18.81
CC(C)CN1CCN(c2ncccc2F)CC1 | -12.99
Cc1nc(O)c(C(=O)N2CCn3cnnc3C2)cc1Br | -9.216
CCOc1ccc(CC(=O)N2CCN(CC)CC2)cc1 | 60.46
O=C(Cn1ccnn1)Nc1ccncc1F | -3.813
NCCOCc1ccc(Cl)cc1 | 40.34
COCCn1ccc(N)n1 | 21.86
Cc1ccc(C(C)NC(=O)c2cnsn2)o1 (centres unmarked) | 0.1652
NC(=O)c1ccccc1NC(=O)CSc1ccccn1 | 53.18
CC1CN(CCC(=O)NC(N)=O)CCO1 (centres unmarked) | 97.81
Cc1nc(NC(=O)c2ccnn2C)sc1C | 32.92
Cc1cccc(CN2CCC3(CC2)[C@H](O)C[C@@H]3O)c1 | 8.65
CCC(C)c1cc(C(=O)Nc2ncccc2O)on1 (centres unmarked) | 76.68
CCOc1ccc(Cl)cc1CCNS(=O)(=O)N(C)C | 90.41